In-gel DMS probing of monomeric and dimeric HIV-1 RNA

Data from the supplement of Ye et al. 2022, doi:10.1038/s41594-022-00746-2.

RNA: 5' end of the HIV-1 NL4-3 genome, made in vitro. Positions 1-437 read:
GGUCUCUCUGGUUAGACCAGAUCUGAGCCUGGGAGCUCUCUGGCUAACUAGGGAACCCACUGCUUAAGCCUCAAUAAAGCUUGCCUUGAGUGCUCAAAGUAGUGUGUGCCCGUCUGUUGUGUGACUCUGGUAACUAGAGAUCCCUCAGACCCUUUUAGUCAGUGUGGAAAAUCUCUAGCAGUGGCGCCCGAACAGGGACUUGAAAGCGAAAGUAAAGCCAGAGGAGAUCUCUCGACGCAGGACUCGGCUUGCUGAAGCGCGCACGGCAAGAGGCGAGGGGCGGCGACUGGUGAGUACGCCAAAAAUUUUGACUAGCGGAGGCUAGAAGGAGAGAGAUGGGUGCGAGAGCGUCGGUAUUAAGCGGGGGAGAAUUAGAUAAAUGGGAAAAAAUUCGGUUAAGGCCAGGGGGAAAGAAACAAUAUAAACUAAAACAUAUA

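Randomly mutated transcripts starting with one, two or three G (1G, 2G, 3G), capped or uncapped, were folded for 30 min at 37 °C. High salt was 300 mM KCl and 5 mM MgCl2, low salt 40 mM KCl and 0.1 mM MgCl2; monomer and dimer were parted on a native gel. Each band was probed in the gel with DMS (170 mM, 15 min, 37 °C), with ethanol as control, and sequenced.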

Scale: normalised reactivity, A and C only; low values point to paired or protected bases, higher values to unpaired ones. One numbering serves 1G, 2G and 3G. A position is written with its base.

For A19 (domain TAR) the result was 1G uncapped low-salt dimer 0.03; 3G capped high-salt monomer 0.02; 1G uncapped high-salt dimer 0.04. With A21 (domain TAR) the assay gave 1G uncapped low-salt dimer 0.57; 3G capped high-salt monomer 0.59; 1G uncapped high-salt dimer 0.55. With C23 (domain TAR) the assay gave 1G uncapped low-salt dimer 0.98; 3G capped high-salt monomer 1.44; 1G uncapped high-salt dimer 1.13. For A26 (domain TAR) the result was 1G uncapped low-salt dimer 0.35; 3G capped high-salt monomer 0.07; 1G uncapped high-salt dimer 0.24. For C28 (domain TAR) the result was 1G uncapped low-salt dimer 0.10; 3G capped high-salt monomer 0.02; 1G uncapped high-salt dimer 0.06. C29 (domain TAR) read 1G uncapped low-salt dimer 0.17; 3G capped high-salt monomer 0.09; 1G uncapped high-salt dimer 0.13.

A34 (domain TAR) read 1G uncapped low-salt dimer 0.86; 3G capped high-salt monomer 1.21; 1G uncapped high-salt dimer 1.00. C36 (domain TAR) read 1G uncapped low-salt dimer 0.11; 3G capped high-salt monomer 0.02; 1G uncapped high-salt dimer 0.07. With C38 (domain TAR) the assay gave 1G uncapped low-salt dimer 0.03; 3G capped high-salt monomer 0.02; 1G uncapped high-salt dimer 0.04. C40 (domain TAR) gave 1G uncapped low-salt dimer 0.03; 3G capped high-salt monomer 0.02; 1G uncapped high-salt dimer 0.04. For C44 (domain TAR) the result was 1G uncapped low-salt dimer 0.03; 3G capped high-salt monomer 0.02; 1G uncapped high-salt dimer 0.04. A46 (domain TAR) read 1G uncapped low-salt dimer 0.15; 3G capped high-salt monomer 0.02; 1G uncapped high-salt dimer 0.08.

A47 (domain TAR) read 1G uncapped low-salt dimer 0.32; 3G capped high-salt monomer 0.11; 1G uncapped high-salt dimer 0.22. With C48 (domain TAR) the assay gave 1G uncapped low-salt dimer 0.21; 3G capped high-salt monomer 0.02; 1G uncapped high-salt dimer 0.14. A50 (domain TAR) read 1G uncapped low-salt dimer 0.37; 3G capped high-salt monomer 0.11; 1G uncapped high-salt dimer 0.26. A54 (domain TAR) gave 1G uncapped low-salt dimer 0.25; 3G capped high-salt monomer 0.13; 1G uncapped high-salt dimer 0.21. A55 (domain TAR) read 1G uncapped low-salt dimer 0.39; 3G capped high-salt monomer 0.18; 1G uncapped high-salt dimer 0.45. With C56 (domain TAR) the assay gave 1G uncapped low-salt dimer 0.16; 3G capped high-salt monomer 0.02; 1G uncapped high-salt dimer 0.19.

C57 (domain TAR) read 1G uncapped low-salt dimer 0.59; 3G capped high-salt monomer 0.02; 1G uncapped high-salt dimer 0.64. For C58 (domain PolyA) the result was 1G uncapped low-salt dimer 0.07; 3G capped high-salt monomer 0.02; 1G uncapped high-salt dimer 0.08. For A59 (domain PolyA) the result was 1G uncapped low-salt dimer 0.28; 3G capped high-salt monomer 0.82; 1G uncapped high-salt dimer 0.31. For C60 (domain PolyA) the result was 1G uncapped low-salt dimer 0.09; 3G capped high-salt monomer 0.80; 1G uncapped high-salt dimer 0.10.